Results deposited as PubChem BioAssay AID504761 (Drosophila RNAi Screening Center, 2011)
The screen tested about 22,000 reagents; this is a random part of those that have a named target and a result. In the full data, 116 (0.52%) are marked active. 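Calls depend on retest data that are not deposited; infection was ranked per plate without normalising between plates; the unit of the infection score is not given.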 The raw values are shown without normalisation. Unmarked entries are inactive. A plus sign joins genes that one reagent is predicted to hit. Not given: the amount of reagent, the time to read-out.

- Aim: 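Fly genes whose silencing reduces dengue virus type 2 infection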 (primary screen)
- Cells: D.Mel-2 cells from Drosophila
- Reagent: long dsRNA against Drosophila genes
- Challenge: infection with dengue virus type 2; dose and infection time not stated
- Detection: 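Cells stained for dengue envelope protein and imaged; percent of infected cells per well on duplicate plates, ranked by infection, with stained nuclei counted for cell number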
- Scale: infection score: higher = more virus-infected cells; cell count: higher = more cells in the well
- Hit rule: 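Very low infection ranking in both replicate wells (chance probability at most 0.065), then a retest showing infection dropped 1.5-fold or more at p below 0.05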
- Calls: active = confirmed: knock-down lowers infection; inactive = not picked or not confirmed

The opening 3 records as a preview:
| gene | dsRNA | infection score, replicate 1 | infection score, replicate 2 | cell count, replicate 1 | cell count, replicate 2 |
| --- | --- | --- | --- | --- | --- |
| Coa8 | DRSC17959 | – | 21.6 | 430 | 5005 |
| Osi8 | DRSC12277 | 4.75 | 24 | 6257 | 6141 |
| Osi8 | DRSC27462 | 18.1 | 12.8 | 6431 | 6514 |

The listing, from the start:
| gene | dsRNA | infection score, replicate 1 | infection score, replicate 2 | cell count, replicate 1 | cell count, replicate 2 |
| --- | --- | --- | --- | --- | --- |
| Coa8 | DRSC17959 | – | 21.6 | 430 | 5005 |
| Osi8 | DRSC12277 | 4.75 | 24 | 6257 | 6141 |
| Osi8 | DRSC27462 | 18.1 | 12.8 | 6431 | 6514 |
| alpha4GT2 | DRSC15905 | 2.66 | 3.67 | 5913 | 6238 |
| CG4230 | DRSC02740 | 4.38 | 3.16 | 6283 | 6584 |
| PPO1 | DRSC05929 | 16.6 | 21 | 5587 | 5292 |
| janA | DRSC16972 | 1.55 | 8.42 | 6462 | 2935 |
| janA | DRSC26590 | 0.96 | 2.39 | 6267 | 6019 |
| CG3566 | DRSC18311 | 2.18 | 3.77 | 6281 | 6794 |
| CG3566 | DRSC29311 | – | – | – | 231 |
| CG11019 (retired record) | DRSC02117 | 2.45 | 5.76 | 6783 | 6802 |
| CG11019 (retired record) | DRSC25211 | 2.79 | 11.3 | 5869 | 3152 |
| Vps20 | DRSC04448 | 9.53 | 23.1 | 6285 | 6342 |
| ssp5 | DRSC14955 | 3.95 | 3.58 | 6864 | 7153 |
| Rheb | DRSC12148 | 4.06 | 13 | 6899 | 5511 |
| Spindly | DRSC00430 | 4.33 | 1.85 | 5339 | 5506 |
| Las | DRSC11772 | 6.4 | 31.3 | 844 | 4431 |
| Las | DRSC26539 | 10.7 | 13.6 | 6137 | 6189 |
| Rab10 | DRSC20572 | 3.21 | 2.61 | 4981 | 4942 |
| Rab10 | DRSC25270 | 5.46 | 4.65 | 6048 | 6366 |
| CG14995 | DRSC22991 | 1.06 | 22.7 | 5944 | 4653 |
| Pgant6 | DRSC08552 | 16.7 | 14.2 | 6440 | 2737 |
| Pgant6 | DRSC26927 | 22.4 | 22.1 | 5845 | 6044 |
| CG16787 | DRSC04282 | 11.4 | 15.9 | 3057 | 5126 |
| CG40191 | DRSC21041 | 24.8 | 5.6 | 4963 | 6821 |
| CG14316 | DRSC14795 | 1.31 | 0.94 | 6855 | 6586 |
| CG6168 | DRSC10596 | 3.34 | 2.52 | 6282 | 6043 |
| CG5567 | DRSC10517 | 11.8 | 25.8 | 4523 | 5148 |
| Datp | DRSC01102 | 1.5 | 1.29 | 5918 | 5433 |
| Rbm13 | DRSC17749 | 3 | 4.36 | 3336 | 3857 |
| Rbm13 | DRSC25416 | 5.09 | 5.16 | 2905 | 1859 |
| CG4080 | DRSC10398 | 4.95 | 4.1 | 5901 | 5993 |
| Vps15 | DRSC16553 | 4.08 | 4.86 | 6447 | 6978 |
| snf | DRSC18835 | 5.25 | 9.36 | 4192 | 4464 |
| snf | DRSC27854 | 9.03 | 8.14 | 6083 | 5948 |
| CG30197 | DRSC22394 | 3.9 | 2.62 | 6204 | 6821 |
| Dph4 | DRSC12318 | 2.74 | 1.67 | 6413 | 6339 |
| CG13928 | DRSC08397 | 1.41 | 1.79 | 6309 | 6493 |
| CG15547 | DRSC15085 | 2.54 | 0.73 | 6060 | 7004 |
| CG15547 | DRSC29577 | 13.5 | 15.9 | 2434 | 2678 |
| Tak1 | DRSC20390 | 2.83 | 4.46 | 6181 | 6478 |
| Tak1 | DRSC20561 | 6.89 | 1.68 | 6289 | 5703 |
| Tak1 | DRSC20562 | 4.86 | 1.74 | 6229 | 6047 |
| MFS3 | DRSC00664 | 1.16 (active) | 1.5 | 6204 | 6582 |
| MFS3 | DRSC28601 | 21.8 | 10.3 | 5398 | 5367 |
| garz | DRSC07193 | 6.04 | 2.95 | 2862 | 4235 |
| h-cup + Rbp | DRSC14990 | 3.85 | 3.09 | 6207 | 6337 |
| SkpE | DRSC19431 | 15.5 | 2.8 | 4505 | 5994 |
| Spt20 | DRSC22993 | 0.72 | 8.57 | 5528 | 6008 |
| Spt20 | DRSC25791 | 0.4 | 5.19 | 6578 | 6631 |
| CG8230 | DRSC05931 | 14.3 | 6.25 | 4659 | 1280 |
| Drat | DRSC06600 | 18.7 | 33.6 | 6594 | 4719 |
| NijC | DRSC14851 | 2.2 | 4.09 | 6508 | 6189 |
| NijC | DRSC29054 | 9.03 | – | 3575 | 268 |
| CG13634 | DRSC14635 | 0.33 | – | 608 | 406 |
| aqrs | DRSC14724 | 5.18 | – | 6835 | 415 |
| CG30127 (retired record) | DRSC05785 | 0.6 | 0.81 | 6337 | 5908 |
| CG30127 (retired record) | DRSC05786 | 0.83 | 0.19 | 6016 | 5727 |
| CG30127 (retired record) | DRSC23535 | 3.41 | 2.89 | 6450 | 5703 |
